These results are taken from ChEMBL document CHEMBL1155139 (Antimicrob Agents Chemother, 2007).

Molecules are shown by their SMILES.

The subject of test [1] is Plasmodium berghei. Briefly: Antimalarial activity as reduced parasitaemia at day 3 against Plasmodium berghei infected MORO mice (Mus musculus) at 100 mg/kg subcutaneous dose. Type of test: functional. Details: scale not given: the % may be the effect or the level left.
Test [2] concerns Plasmodium berghei. As to the kind of experiment: Antimalarial activity as reduced parasitaemia at day 3 against Plasmodium berghei infected MORO mice (Mus musculus) at 100 mg/kg peroral dose. Also noted: scale not given: the % may be the effect or the level left. Type of test: functional.

Turning to `C1CC2(CCO1)OOC1(CCOCC1)OO2`, the Activity in the test with Plasmodium berghei [1] came out at 0%; in the test on Plasmodium berghei [2], 22%.
For `C1CCC2(C1)OOC1(CCCC1)OO2`, in that order: 84% and 35%.
